Measured values from several laboratories, pooled; numbers as filed in NIAID ChemDB.

Common to all: tests in culture; species: Mycobacterium avium complex

Lines come from different laboratories, so protocols vary.

compound	strain	method	tested at	read-out	result
CCc1cc(C(N)=S)ccn1	155 strains	agar	-	EC50	>5 µg/mL
CC[C@H]1OC(=O)[C@H](C)[C@@H](OC2C[C@@](C)(OC)[C@@H](O)[C@H](C)O2)[C@H](C)[C@@H](O[C@@H]2O[C@H](C)C[C@H](N(C)C)[C@H]2O)C(C)(O)C[C@@H](C)/C(=N\OCCc2cccs2)[C@H](C)[C@@H](O)[C@]1(C)O	20039 (clarithromycin-susceptible)	-	-	MIC	1.56 µg/mL
CC1(C)N=C(N)N=C(N)N1OCCCOc1cc(Cl)c(Cl)cc1Cl	516	-	-	MIC	2 µg/mL
CO[C@H]1/C=C/O[C@@]2(C)Oc3c(C)c(O)c4c(O)c(c5c(c4c3C2=O)NC2(CCN(CC(C)C)CC2)N=5)=NC(=O)/C(C)=C\C=C\[C@H](C)[C@H](O)[C@@H](C)[C@@H](O)[C@@H](C)[C@H](OC(C)=O)[C@@H]1C	N-314 (HIV-)	-	-	MIC	1.6 µg/mL
CC1(C)N=C(N)N=C(N)N1OCCCOc1cc(Cl)c(Cl)cc1Cl	DW13	-	-	MIC	4 µg/mL
C[C@@H]1CN(c2c(F)c(N)c3c(=O)c(C(=O)O)cn(C4CC4)c3c2F)C[C@H](C)N1	CIPT 140310030	-	-	MBC	3 µg/mL
CC[C@H]1OC(=O)[C@H](C)[C@@H](OC2C[C@@](C)(OC)[C@@H](O)[C@H](C)O2)[C@H](C)[C@@H](O[C@@H]2O[C@H](C)C[C@H](N(C)C)[C@H]2O)C(C)(O)C[C@@H](C)/C(=N\OCC2CCCCC2)[C@H](C)[C@@H](O)[C@]1(C)O	20092 (clarithromycin-resistant)	-	-	MIC	>50 µg/mL
CO[C@H]1/C=C/O[C@@]2(C)Oc3c(C)c(O)c4c(=O)c(c5oc6cc(N7CCN(CC(C)C)CC7)cc(=O)c6nc5c4c3=C2O)NC(=O)/C(C)=C\C=C\[C@H](C)[C@H](O)[C@@H](C)[C@@H](O)[C@@H](C)[C@H](OC(C)=O)[C@@H]1C	N-319 (HIV-)	-	-	MIC	0.0313 µg/mL
CCCCCCCCCCCCCCO/N=C1\[C@H](C)CC(C)(O)[C@H](O[C@@H]2O[C@H](C)C[C@H](N(C)C)[C@H]2O)[C@@H](C)[C@H](OC2C[C@@](C)(OC)[C@@H](O)[C@H](C)O2)[C@@H](C)C(=O)O[C@H](CC)[C@@](C)(O)[C@H](O)[C@H]1C	20096 (clarithromycin-resistant)	-	-	MIC	>50 µg/mL
CCc1nc(N)nc(N)c1-c1ccc(Cl)cc1	DW14	-	-	MIC	32 µg/mL
CC[C@H]1OC(=O)[C@H](C)[C@@H](O[C@H]2C[C@@](C)(OC)[C@@H](O)[C@H](C)O2)[C@H](C)[C@@H](O[C@@H]2O[C@H](C)C[C@H](N(C)C)[C@H]2O)[C@](C)(OC)C[C@@H](C)C(=O)[C@H](C)[C@@H](O)[C@]1(C)O	N-259 (HIV-)	-	-	MIC	1 µg/mL
CC[C@H]1OC(=O)[C@H](C)[C@@H](OC(=O)CC2CCCCC2)[C@H](C)[C@@H](O[C@@H]2O[C@H](C)C[C@H](N(C)C)[C@H]2O)C(C)(O)C[C@@H](C)/C(=N\OCCCOc2ccccc2)[C@H](C)[C@@H](O)[C@]1(C)O	20096 (clarithromycin-resistant)	-	-	MIC	6.25 µg/mL
NNC(=O)c1ccncc1	N-289 (HIV-)	-	-	MIC	4 µg/mL
CC[C@H]1OC(=O)[C@H](C)[C@@H](OC2C[C@@](C)(OC)[C@@H](OC(=O)CCc3ccccc3)[C@H](C)O2)[C@H](C)[C@@H](O[C@@H]2O[C@H](C)C[C@H](N(C)C)[C@H]2O)C(C)(O)C[C@@H](C)/C(=N\OCCCOc2ccccc2)[C@H](C)[C@@H](O)[C@]1(C)O	20039 (clarithromycin-susceptible)	-	-	MIC	0.78 µg/mL
N[C@@H]1CONC1=O	14 strains	agar	30 µg/mL	inhibition	71%

A second listing of 2 rows from above:

compound	strain	method	tested at	read-out	result
CO[C@H]1/C=C/O[C@@]2(C)Oc3c(C)c(O)c4c(=O)c(c5oc6cc(N7CCN(CC(C)C)CC7)cc(=O)c6nc5c4c3=C2O)NC(=O)/C(C)=C\C=C\[C@H](C)[C@H](O)[C@@H](C)[C@@H](O)[C@@H](C)[C@H](OC(C)=O)[C@@H]1C	N-319 (HIV-)	-	-	MIC	0.0313 µg/mL
CC1(C)N=C(N)N=C(N)N1OCCCOc1cc(Cl)c(Cl)cc1Cl	DW13	-	-	MIC	4 µg/mL

Percent inhibition refers to the dose given; in toxicity tests it is the harm to the cells. ECn: concentration that inhibits the pathogen or its effect by n%. Blank or dashed fields: not listed here.